This note sets out measurements from US20220127309A1.

For this assay, the target named is Ectodomain of INFA HA (1-529) - HIV GP160-based SSM (Influenza A). Description: ELISA, printed as affinity (FIG. 2). For orientation: ELISA stands for enzyme-linked immunosorbent assay.

Broadly, the Kd is the constant that tells how readily two partners part at equilibrium.

For the substance “Prefusion, stem, specific monoclonal antibody CR8043”, the Kd was found to be 3.3 nM.
